Reference: the supplement of paper PMC9931576
Human monoclonal antibodies against the spike receptor-binding domain (heavy:light variable regions). IC50 against pseudoviruses bearing the spike of naturally observed variants; lower = stronger; >10 µg/ml means not reached at the top dose. No active / inactive call. The stated detection limit is 0.0005 µg/ml; values near or below 0.001 µg/ml lie at the floor of the assay.

Assays:
Assay in all cases: pseudovirus neutralization IC50; higher = weaker neutralization
[1] = target: SARS-CoV-2 Omicron BA.1 spike pseudovirus
Method: (§1)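 Single-round VSV luciferase pseudovirus mixed with antibody dilutions for 1 h and put on Huh-7 cells for about a day; IC50 from the dose curve.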

[2] = target: SARS-CoV-2 Omicron BA.2 spike pseudovirus
Method: as §1

[3] = target: SARS-CoV-2 Omicron BA.2.75 spike pseudovirus
Method: as §1

[4] = target: SARS-CoV-2 Omicron BA.2.75.2 spike pseudovirus
Method: as §1

[5] = target: SARS-CoV-2 Omicron BA.5 spike pseudovirus
Method: as §1

[6] = target: SARS-CoV-2 Omicron BM.1.1.1 spike pseudovirus
Method: as §1

[7] = target: SARS-CoV-2 Omicron BQ.1.1 spike pseudovirus
Method: as §1

[8] = target: SARS-CoV-2 Omicron BR.2 spike pseudovirus
Method: as §1

[9] = target: SARS-CoV-2 Omicron CA.1 spike pseudovirus
Method: as §1

[10] = target: SARS-CoV-2 Omicron XBB spike pseudovirus
Method: as §1

[11] = target: SARS-CoV-2 early D614G spike pseudovirus
Method: as §1

Row | Binder | pseudovirus neutralization IC50 [1] | pseudovirus neutralization IC50 [2] | pseudovirus neutralization IC50 [3] | pseudovirus neutralization IC50 [4] | pseudovirus neutralization IC50 [5] | pseudovirus neutralization IC50 [6] | pseudovirus neutralization IC50 [7] | pseudovirus neutralization IC50 [8] | pseudovirus neutralization IC50 [9] | pseudovirus neutralization IC50 [10] | pseudovirus neutralization IC50 [11]
1 | BD56-235 (protein) chain 1: EVQLLESGGGLVQPGGSLRLSCAASGFTFRSYVMSWVRQAPGKGLEWVSAISGSGGSTDYADSVKGRFTISRDNSKNTLYLQMNSLRAEDTAVYYCAKEDDDDYGALSFDSWGQGTLVTVSS chain 2: QSALTQPASVSGSPGQSITISCTGSSSDVGSYILVSWYQQHPGKAPKLMIYEGSKRPSGISNRFSGSKSGNTASLTIYGLQAEDEADYYCCSFADSRVFGGGTKVTVL | 0.0353 µg/mL | 0.0335 µg/mL | 1.13 µg/mL | 0.99 µg/mL | > 10 µg/mL | > 10 µg/mL | > 10 µg/mL | > 10 µg/mL | > 10 µg/mL | > 10 µg/mL | > 10 µg/mL
2 | BD56-1238 (protein) chain 1: QVQLVESGGGVVQPGRSLRLSCAASGFTFSGFAMHWVRQAPGKGLDWVAVISYDGSNKYYADSVKGRFTVSRDSSKSTLYLQMNSLKTEDTALYYCARDSLLGNWNDPWDAFDIWGRGTMVTVSS chain 2: QSVLTQPPSVSGAPGQRVTISCTGSSSNIGAGYAVHWYQQLPGTAPRLLISDNNNRPSGVPDRFSGSTSGTSASLAITGLQAEDEADYYCQSYDTSLSHSVVFGGGTKLTVL | 0.00048 µg/mL | 0.000828 µg/mL | 0.00134 µg/mL | 0.0111 µg/mL | 0.00202 µg/mL | 0.00227 µg/mL | 0.00355 µg/mL | 0.0013 µg/mL | 0.00131 µg/mL | 0.00424 µg/mL | > 10 µg/mL
3 | BD56-1190 (protein) chain 1: EVQLVESGGGFVQPGRSLRLSCAASGFTFDDYAMHWVRQAPGKGLEWVSGISWNSGSIGYGDSVKGRLTISRDNAKNSLYLQMNSLRAEDTALYYCARSRISMITVAGGAFDIWGQGTMVTVSS chain 2: DIQMTQSPSSLSASVGDRVTITCQASQDISNYLSWYQQKPGKAPKLLIYDASNLERGVPSRFSGSGSGTDFTFTISSLQPEDIATYYCQQYDNLPPPFTFGPGTKIDIK | 3.12 µg/mL | 0.0475 µg/mL | > 10 µg/mL | > 10 µg/mL | > 10 µg/mL | > 10 µg/mL | > 10 µg/mL | > 10 µg/mL | > 10 µg/mL | > 10 µg/mL | > 10 µg/mL
4 | BD56-1195 (protein) chain 1: QVQLQESGPGLVKPSETLSLTCTVSGGSISTDYWSWIRQPPGKGLEWIGLIDDSGSTNYNPSLKSRVSISVDTSKNQFSLKLSSVTAADTAVYYCARKIPGQWDDRGYGMDVWGQGTTVTVSS chain 2: SDELTQPPSVSVSPGQTARITCSGDALPQQYAYWYQQKPGQAPVMVIYKDSERPSGIPERFSGSSSGTTVTLTISGVQAEDEADYYCQSADNNGTPVVFGGGTKLTVL | 0.00441 µg/mL | 0.00262 µg/mL | 0.00137 µg/mL | 0.00255 µg/mL | 0.00299 µg/mL | 0.00289 µg/mL | 0.00694 µg/mL | 0.00275 µg/mL | 0.00278 µg/mL | > 10 µg/mL | > 10 µg/mL
5 | BD56-286 (protein) chain 1: EVQLVQSGAEVKKPGESLKISCKGSGYSFTNYWIGWVRQMPGIGLEWMGIIYPGDSDTRYSPSFQGQVTISADKSISTAYLQWSSLKASDTAMYYCAIPNGYSSGCYFYWGQGTLVTVSS chain 2: EIVMTQSPATLSVSPGERATLSCRASQSVSSNLAWYQQKPGQAPRLLIYDASTRATGIPARFSGSGSGTEFTLTISSLQSEDFAVYYCQQYNNWASTFGQGTKVEIK | 0.00657 µg/mL | 0.0293 µg/mL | 0.115 µg/mL | 0.178 µg/mL | 0.0376 µg/mL | 0.16 µg/mL | 4.19 µg/mL | 0.173 µg/mL | 0.149 µg/mL | > 10 µg/mL | > 10 µg/mL
6 | BD58-0546 (protein) chain 1: EVQLVESGGGVVQPGGSLRLSCAVSGFRFDDYAMHWVRQTPGKGLEWVSLISGDGRSAYYADSVKGRFTISRDNSENSLYLQMNSLRTEDTAFYYCSKDIGITSFWYFGATQIDYWGQGTLVTVSS chain 2: QSVLTQPPSVSAAPGQKVTISCSGSSSNIGNNYVSWYQQLPGTAPKLLIFDNDQRPSGIPDRFSGSKSVTSATLAITGLQTGDEADYYCGTWDSSLSAGVFGGGTKLTVL | > 10 µg/mL | 0.000497 µg/mL | 1.48 µg/mL | 3.53 µg/mL | 0.126 µg/mL | > 10 µg/mL | > 10 µg/mL | > 10 µg/mL | > 10 µg/mL | > 10 µg/mL | > 10 µg/mL
7 | BD58-0528 (protein) chain 1: QVQLVQSGAEVKKPGASVTVSCKVSGYTLIELSMHWVRQAPGKGLEWMGSFDPEHRETIYAQKFQGRVTMTEDTSTDTAYMELSSLRSEDTAVYYCATSPTYYYGSGSFYKAFDSWGQGTLVTVSS chain 2: EIVLTQSPATLSLSPGERATLSCRASQSVSSYLAWYQQKPGQAPRLLIYDASNRATGIPARFSGSGSGTDFTLTISSLEPEDFAVYYCQQRSDWPPWTFGQGTKVEIK | 0.0039 µg/mL | 0.00142 µg/mL | > 10 µg/mL | > 10 µg/mL | > 10 µg/mL | > 10 µg/mL | > 10 µg/mL | > 10 µg/mL | > 10 µg/mL | > 10 µg/mL | > 10 µg/mL
8 | BD58-0517 (protein) chain 1: EVQLVESGGGLVKPGGSLRLSCAASGFTFSRYSMNWVRQAPGKGLEWVSSLSSRSTYLYYADSVKGRFTISRDNAKNSLYLQMNSLRAEDTAVYYCARDSADIYDYVWGTYRLGDYWGQGTLVTVSS chain 2: QSVLTQPPSASGTPGQRVTISCSGSNSNIKSNAVNWYQQLPRTAPKLLLYNNNQRPSGVPDRFSGSKSGTSASLAISGLQSEDEADYYCAAWDDSLTGWVFGGGTQLTVL | 0.0154 µg/mL | 0.00109 µg/mL | 0.0118 µg/mL | 0.034 µg/mL | 0.000788 µg/mL | 0.0666 µg/mL | 0.0509 µg/mL | 0.0654 µg/mL | 0.0833 µg/mL | 0.0438 µg/mL | > 10 µg/mL
9 | BD56-1209 (protein) chain 1: QVQLVQSGAEVKKPGSSVKVSCKASGGTFSNYASSWVRQAPGQGLEWMGGIIPMFGTANYAQKFQGRVTITADESTNTAYMELSSLRSEDTAVYYCARAGLGSWYGGSDGENYFDYWGQGTLVTVSS chain 2: DIQMTQSPSSLSASVGDRVTITCRASQNISNYLNWYQQKPGKAPKLLIYAASSLHSGVPSRFSGSGSGTDFTLTISSLQPEDFATYYCQQSYNTLYTFGQGTKLEIK | 0.733 µg/mL | 0.196 µg/mL | > 10 µg/mL | > 10 µg/mL | > 10 µg/mL | > 10 µg/mL | > 10 µg/mL | > 10 µg/mL | > 10 µg/mL | > 10 µg/mL | > 10 µg/mL
10 | BD56-1352 (protein) chain 1: EVQLVESGGGLIQPGGSLRLSCAASGFTVSSNYMSWVRQAPGKGLEWVSVIYSGGSTFYADSVKGRFTISRDNSENTLYLQMNSLRAEDTAVYYCARENLGEPNYGFDYWGQGTLVTVSS chain 2: DIQMTQSPSSLSASVGDRVTITCQASQDINKYLNWYQQKPGKAPKLLIYDASNLETGVPSRFSGSGSGTDFTFTITSLQPEDIGTYYCQQYDNLPPWTFGQGTKVEIK | 0.00115 µg/mL | 0.00077 µg/mL | > 10 µg/mL | > 10 µg/mL | 0.124 µg/mL | > 10 µg/mL | > 10 µg/mL | > 10 µg/mL | > 10 µg/mL | > 10 µg/mL | > 10 µg/mL
